One experiment concerns the target JRFL SOSIP (UniProt P20871). In words: ITC. The note with it: Fab.
For another experiment, the target named is JRFL gp120 (UniProt P20871).

As usually defined, the Kd is the concentration at which binding is half-saturated. High values mean weaker binding, low ones tighter binding.

With VRC01 Fab, in the experiment with JRFL SOSIP, the Kd is 207 nM.
Regarding F105, the Kd with JRFL gp120 stood at 7.42 nM.

(Values after patent publication US20170035877A1.)
